Results published in PubChem BioAssay (NCATS).
Only a part is listed here, and it is no random draw. For part of these data: Measured potencies and affinities stand elsewhere. Calls of active or inactive are those of the source.

Experiments:
[1] = Ebola virus entry assay, green fluorescence channel
[2] = Ebola virus entry assay, blue channel fluorescence
[3] = Ebola virus entry assay, green fluorescence channel; remark: listed apart in the source
[4] = Ebola virus entry assay, ratio channel readout
[5] = Ebola virus entry assay, green channel fluorescence
[6] = Ebola virus entry assay, blue channel fluorescence; remark: listed apart in the source
[7] = Ebola virus entry reporter assay, green channel fluorescence
[8] = Ebola virus entry cell assay, ratio channel
[9] = Ebola virus entry assay, ratio channel
[10] = Ebola virus entry assay, reporter ratio channel; Channel type: primary
[11] = Ebola virus entry assay, blue channel fluorescence; remark: listed apart in the source
[12] = Ebola virus entry assay, blue channel (ratio component)
For efficacy in this document: 0% is about no effect.

O=C(O)c1ccccc1O
inactive: efficacy [1] -10.2% | outcome [2] | outcome [3] | outcome [4] | outcome [5] | outcome [6] | outcome [7] | outcome [8]

COc1ccccc1OCCNCC(O)COc1cccc2[nH]c3ccccc3c12 (centres undefined)
inactive: outcome [3] | outcome [7]

CNCCCCOc1ccccc1Cc1ccccc1
active: AC50 [9] 3.16 µM | AC50 [10] 3.16 µM

CCCCc1oc2ccccc2c1C(=O)c1cc(I)c(OCCN(CC)CC)c(I)c1
active: AC50 [2] 6.31 µM | AC50 [4] 6.31 µM | AC50 [8] 6.31 µM

CC(Cc1ccc(O)cc1)NCC(O)c1cc(O)cc(O)c1 (centres undefined)
inactive: efficacy [1] 34.5% | outcome [11] | outcome [5] | outcome [10] | outcome [12]

Cc1ncc([N+](=O)[O-])n1CCO
inactive: outcome [2] | outcome [11] | outcome [6] | outcome [12]
